Consider one molecule from US20070009547A1 (INSTITUT PASTEUR, published 2007).

For this experiment, the target named is ESAT-6 with a C-terminal hexahistidine tag, produced by recombinant BCG::2F9-EsxA-HIS (M. tuberculosis, UniProt P0A565 2-95).

B1: 10 kDa culture filtrate protein (CFP-10), encoded by esxB (other)
chain: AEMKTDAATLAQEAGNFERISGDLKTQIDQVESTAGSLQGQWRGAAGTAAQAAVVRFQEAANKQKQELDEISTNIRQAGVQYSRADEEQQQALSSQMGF
Take B1: the binding result was “binds”.
